PubChem BioAssay AID1259415 (National Center for Advancing Translational Sciences (NCATS), 2018)
The list shows a part of the results, in another mix than the full data. Results filed as inconclusive are left out. Calls of active or inactive are those of the source. Rule as the data show it: active = activity change below about -60%; inconclusive = no clear call, values can overlap the other calls; inactive = above about -39%.

Test: qHTS Assay for inhibitors of the human cytomegalovirus (HCMV)
Conditions: HFF cells, HCMV-luciferase reporter, 72 h; at 57.5 µM; stronger effect = lower value
Procedure, shortened: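 Inhibition of viral replication was scored as loss of reporter luminescence in HFFs infected with HCMV-luciferase (MOI 1 PFU/cell) for 72 h; compounds tested at 2 doses, normalized to buffer and Salinomycin controls.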
% is scaled to controls: 0 for no effect and ±100 for the full control effect.

| Compound | activity change, negative = inhibition |
| --- | --- |
| CN(C(=O)Cc1ccc(Cl)c(Cl)c1)C1CCCC[C@@H]1N1CCCC1 (stereo not given in full) | inactive: -31% |
| CC1(CBr)Cn2c(nc3ccccc3c2=O)S1 (stereo not given) | inactive: 28.8% |
| O=P1(Nc2ccccn2)COc2ccccc2OC1 | inactive: 10.9% |
| CCC1=CC2Cc3nc4ccc(Cl)cc4c(N)c3C(C1)C2 (stereo not given) | inactive: -4.99% |
| CCOP(=O)(NC(=NC(C)c1ccccc1)NC(C)c1ccccc1)OCC (stereo not given) | inactive: 4.23% |
| CN(CCCl)Cc1cc(Cl)c(NC2=NCCN2)c(Cl)c1 | inactive: -7.77% |
| CCOP(=O)(Nc1ccc(C)cn1)OCC | inactive: 25% |
| O=P1(N(CCCl)CCCl)NCCC(C(F)(F)F)O1 (stereo not given) | inactive: 7.95% |
| Clc1n[nH]nc1-c1nn[nH][15n]1 | inactive: 29.5% |
| CC(C)(C)C(=O)NC(Sc1ncccn1)C(Cl)(Cl)Cl (stereo not given) | inactive: -21.8% |
| Cc1ccc(NCCc2c([N+](=O)[O-])cc([N+](=O)[O-])cc2[N+](=O)[O-])cc1 | inactive: -28.1% |
| CCCOP(=S)(Nc1nc(N)cc(=O)[nH]1)OCCC | inactive: -3.26% |
| COc1cc(C2NCCC3(OCCO3)C2(C)C)cc(OC)c1OC (stereo not given) | active: -64.8% |
| CCOP(=O)(Nc1cccc2ccccc12)OCC | inactive: -14.4% |
| O=C(OC1CN2CCC1CC2)c1ccc(Cl)cc1 (stereo not given) | inactive: 15.5% |
| COc1cc(C(=O)NCC2(N3CCOCC3)CCCCC2)cc(Cl)c1OC(C)C | inactive: -19.3% |
| O=[As](O)(O)c1cccnc1 | inactive: -21.9% |
| CS(=O)(=O)c1ccc(Cl)c(NC(=O)COC(=O)C(O)(c2ccccc2)c2ccccc2)c1 | inactive: 0.954% |
| Cc1cccc(OCC(=O)OC2CN3CCC2CC3)c1 (stereo not given) | inactive: 25.8% |
| NC(=O)Nc1ccc([As](=O)(O)O)cc1 | inactive: -1.37% |
| N#CCCN(C(=O)COC(=O)C(O)(c1ccccc1)c1ccccc1)c1ccc(F)cc1 | inactive: -16.3% |
| CCOP1(=S)c2c(C)nn(CCC#N)c2N=C(c2ccc(F)cc2)N1C (stereo not given) | inactive: -25.7% |
| CN(C(=O)Cc1ccccc1)[C@@H]1CC[C@]2(CCCO2)C[C@H]1N1CCCC1 | inactive: -34.5% |
| CN(C)C(=O)c1cc([N+](=O)[O-])cc2c1-c1c(cc([N+](=O)[O-])cc1[N+](=O)[O-])C2=O | active: -109% |
| O=[N+]([O-])c1ccc2c(c1)nnn2O | inactive: -8.67% |
| CN(C(=O)Cc1ccc(Cl)c(Cl)c1)[C@H]1CC[C@@]2(CCCO2)C[C@@H]1N1CCCC1 | inactive: -35.6% |
| CCOP1(=S)c2c(C)nn(CCC#N)c2N=C(c2ccccc2F)N1C (stereo not given) | inactive: -18.7% |
| O=P(Nc1nccs1)(Oc1ccccc1)Oc1ccccc1 | inactive: -28.8% |
| Nc1ccccc1[As](=O)(O)c1ccccc1 | inactive: -26.4% |
| O=C(O)COc1ccc([As](=O)(O)O)cc1[N+](=O)[O-] | inactive: -3.61% |
